Experimental findings from patent US6270957A (Wisconsin Alumni Research Foundation, priority 1999, dated 2001) are described below.

One series is described as follows: general procedure: solution-phase peptide synthesis; BOP-Cl for N-methyl amino acids; BOP for the 7+4 segment coupling; EDCI/HOBt; Py. Particulars: coupling step.
Substance Boc-MeLeu-Val-MeLcu-Lys(2Cl-Cbz)-OBn yielded a step yield of 69%.

“Acetonide-MeLeu(3-OH)-Abu-Sar-MeAla-Val-MeAla-Lys(2Cl-Cbz)-OBn”: the step yield was 67% yield. Turning to “Boc-Abu-Sar-MeAla-Val-MeAla-Lys(2Cl-Cbz)-OBn”, the step yield is 72% yield. As for “Boc-(D)MeSer(OBn)-MeLeu-Val-MeLeu-Lys(2 Cl-Cbz)-OBn”, the step yield was determined as 71%. Same read-out and setting: as for Boc-Phe-[HEA]-Pro-Ile-Phe-O-allyl, the figure is 80%; as for “Fmoc-(D)Ala-MeLeu-MeLeu-MeVal-MeLeu(3-OH)-Abu-Sar-MeAla-Val-MeAla-Lys(2Cl- Cbz)-OBn”, 59% yield.

Still in this series, the particulars now being: late stage modification step.
Regarding “Boc-(D)MeSer-MeLeu-Val-MeLeu-Lys(2Cl-Cbz)-OBn”, the step yield came to 89% yield. Substance “H-MeLeu(3-OH)-Abu-(D)MeSer(OBn)-MeLeu-Val-MeLeu-Lys(2Cl-Cbz)-OBn” yielded a step yield of 76% yield. “H-MeLeu(3-OH)-Abu-Sar-MeAla-Val-MeAla-Lys(2Cl-Cbz)-OBn” showed a step yield of 84% yield. Consider acetylcyclosporin A, for which the step yield is 65%.
